Results taken from publication PMC3112458, “Marked increase in etravirine and saquinavir plasma concentrations during atovaquone/proguanil prophylaxis” (Malaria Journal, 2011).

Assay: 12 hour-PK of anti-retrovirals before and at day 20 of atovaquone/proguanil prophylaxis (HPLC-UV, plasma)
Assay type: in vivo, human
Description: In September 2009, the patient planned to spend a two-week holiday in Kenya. […] Standard malaria prophylaxis with atovaquone/proguanil fixed-dose combination (250/100 mg) was prescribed: one tablet daily starting two days before the journey and ending the treatment seven days after return to Italy. A 12 hour-PK of anti-retrovirals was performed before starting prophylaxis with atovaquone/proguanil (Figure 1). The samples were collected in fasting status following this order: the first sample 12 hours after the last dose of anti-retrovirals (pre-dose); the second sample one hour after breakfast and anti-retrovirals consumption; the following samples at 2, 4, 6 and 12 hours post anti-retrovirals' intake. The second PK for the determination of anti-retrovirals' plasma concentrations during atovaquone/proguanil prophylaxis was collected at day 20 on prophylaxis with the same timing plan (Figure 1). In order to avoid any food interference with the PK results, the same diet was administered in both the PK sampling days.

With maraviroc the “Tmax and Cmax in post-prophylaxis versus pre-prophylaxis” value (PK profiles, day 20 of atovaquone/proguanil prophylaxis) was “earlier” and the “Δ AUC0-12h (during prophylaxis AUC minus pre-prophylaxis AUC)” value (plasma, one HIV patient, day 20 of atovaquone/proguanil 250/100 mg daily vs before prophylaxis) was -9%.
